Measurements reported in US10369166B2 (priority 2014, dated 2019).

System: Ebola virus
[1] = Example 2: baby (5 kg), initial load 10^7 pfu/ml, sequential
[2] = Example 5: initial load 10^10 pfu/ml, sequential
[3] = Example 6: initial load 10^10 pfu/ml, sequential
[4] = Example 8: baby (5 kg), initial load 10^7 PFU/ml, sequential reduction after each product of the cocktail

| SMILES | Residual estimated viral load [1] | Residual estimated viral load [2] | Residual estimated viral load [3] | Residual estimated viral load [4] | Residual estimated viral load (Example 3: initial load 10^9 pfu/ml, sequential) | Residual estimated viral load (Example 9: baby (7 kg), initial load 10^8 PFU/ml, sequential reduction after each product) |
| --- | --- | --- | --- | --- | --- | --- |
| C[C@H]1[C@H](C)CC[C@]2(C(=O)O)CC[C@]3(C)C(=CC[C@@H]4[C@@]5(C)CC[C@H](O)C(C)(C)[C@@H]5CC[C@]43C)[C@H]12 | 12500 pfu/ml | 2.5 × 10^8 pfu/ml | 1.25 × 10^8 pfu/ml | 125000 pfu/ml |  |  |
| CC1(C)CC[C@]2(C(=O)O)CC[C@]3(C)C(=CC[C@@H]4[C@@]5(C)CC[C@H](O)C(C)(C)[C@@H]5CC[C@]43C)[C@@H]2C1 [BETA-OLEANOLIC ACID] | 1875 pfu/ml | 1.25 × 10^8 pfu/ml | 6.25 × 10^7 pfu/ml | 18750 pfu/ml | 6250 pfu/ml | 1.5 × 10^5 pfu/ml |

Like-named read-outs stand apart in the source and are kept apart here.
